Patent US20250057893A1, “PHARMACEUTICAL COMPOSITION FOR PREVENTING OR TREATING CANCER OR INFLAMMATORY DISEASE” (ENTEROBIOME INC., priority 2021, published 2025)

Tested on: Akkermansia muciniphila ATCC BAA-835
Test: Utilization of carbohydrates (API50CH kit), type strain
Format: cell-based
Set-up: key: +: growth; w: weak growth; −: no growth
Details: type strain ATCC BAA-835

Row | Molecule | Growth using the carbohydrate, ATCC BAA-835
1 | OC[C@@H](O)[C@@H](O)[C@@H](O)CO [Adonitol] | −
2 | OC[C@H]1O[C@H](OC[C@H]2O[C@H](O[C@]3(CO)O[C@H](CO)[C@@H](O)[C@@H]3O)[C@H](O)[C@@H](O)[C@@H]2O)[C@H](O)[C@@H](O)[C@H]1O [D-Raffinose] | −
3 | O=C[C@@H](O)[C@H](O)[C@H](O)CO [D-Arabinose] | w
4 | CO[C@@H]1OC[C@@H](O)[C@H](O)[C@H]1O [β-Methyl-xyloside] | −
5 | OC[C@H](O)C(O)[C@@H](O)CO [L-Arabitol] | −
6 | OC[C@@H](O)[C@@H](O)[C@H](O)[C@@H](O)CO [D-Sorbitol] | −
7 | O=C([O-])C(=O)C(O)C(O)C(O)CO.[K+] (stereo not drawn) [Potassium 2-Ketogluconate] | −
8 | OC[C@H]1O[C@@](CO)(O[C@H]2O[C@H](CO)[C@@H](O)[C@H](O)[C@H]2O)[C@@H](O[C@H]2O[C@H](CO)[C@@H](O)[C@H](O)[C@H]2O)[C@@H]1O [D-Melezitose] | −
9 | C[C@H](O)[C@@H](O)[C@@H](O)[C@H](O)C=O [L-Fucose] | +
10 | Glycogene | −
11 | O=C(CO)[C@@H](O)[C@H](O)[C@@H](O)CO [L-Sorbose] | −
12 | OC[C@H]1O[C@@](CO)(O[C@H]2O[C@H](CO)[C@@H](O)[C@H](O)[C@H]2O)[C@@H](O)[C@@H]1O [D-Saccharose (sucrose), D-Saccharose] | −
13 | OC[C@@H](O)[C@@H](O)CO [Erythritol] | −
14 | O=C[C@H](O)[C@@H](O)[C@H](O)CO [D-Xylose] | w
15 | OCC(O)CO [Glycerol] | −
16 | C[C@@H](O)[C@H](O)[C@H](O)[C@@H](O)C=O [D-Fucose] | −
17 | OCc1ccccc1O[C@@H]1O[C@H](CO)[C@@H](O)[C@H](O)[C@H]1O [Salicine] | −
18 | OC[C@@H](O)[C@@H](O)[C@H](O)[C@H](O)CO [D-Mannitol] | −
19 | OC[C@H]1O[C@@H](Oc2ccc(O)cc2)[C@H](O)[C@@H](O)[C@@H]1O [Arbutine] | −
20 | O=C[C@H](O)[C@@H](O)[C@@H](O)[C@H](O)CO [D-Galactose] | w
21 | OC[C@H]1O[C@@H](O[C@H]2[C@H](O)[C@@H](O)[C@H](O)O[C@@H]2CO)[C@H](O)[C@@H](O)[C@@H]1O [D-cellobiose] | −

Row | Molecule | Growth using the carbohydrate, ATCC BAA-835
22 | OC[C@H]1O[C@H](OCC2O[C@@H](O)[C@H](O)[C@@H](O)[C@@H]2O)[C@H](O)[C@@H](O)[C@H]1O (stereo partly drawn) [D-Melibiose] | −
23 | CO[C@H]1O[C@H](CO)[C@@H](O)[C@H](O)[C@@H]1O [Methyl-α D-mannopyranoside] | −
24 | O=C[C@@H](O)[C@@H](O)[C@H](O)CO [D-Lyxose] | w
25 | O=C[C@@H](O)[C@H](O)[C@@H](O)CO [L-Xylose] | w
26 | O=C(CO)[C@@H](O)[C@H](O)[C@@H](O)C(=O)[O-].[K+] [Potassium 5-Ketogluconate] | w
27 | OC[C@H]1O[C@H](O[C@H]2[C@H](O)[C@@H](O)[C@H](O)O[C@@H]2CO)[C@H](O)[C@@H](O)[C@@H]1O [D-Maltose] | −
28 | D-Turanose | −
29 | O=C[C@H](O)[C@H](O)[C@H](O)CO [Ribose] | +
30 | CC(=O)N[C@H]1C(O)O[C@H](CO)[C@@H](O)[C@@H]1O (stereo partly drawn) [N-Acetylglucosamine] | +
31 | OC[C@H]1O[C@@H](O[C@H]2[C@H](O)[C@@H](O)C(O)O[C@@H]2CO)[C@H](O)[C@@H](O)[C@H]1O (stereo partly drawn) [D-Lactose (bovine origin), D-Lactose] | +
32 | OC[C@@H](O)[C@H](O)[C@H](O)[C@@H](O)CO [Dulcitol] | −
33 | OC[C@H]1O[C@H](O[C@H]2O[C@H](CO)[C@@H](O)[C@H](O)[C@H]2O)[C@H](O)[C@@H](O)[C@@H]1O [D-Trehalose] | −
34 | O[C@H]1[C@H](O)[C@@H](O)[C@H](O)[C@@H](O)[C@H]1O [Inositol] | −
35 | CO[C@H]1O[C@H](CO)[C@@H](O)[C@H](O)[C@H]1O [Methyl-α D-glucopyranoside] | −
36 | O=C(CO)[C@@H](O)[C@@H](O)[C@H](O)CO [D-Tagatose] | −
37 | O=C[C@@H](O)[C@@H](O)[C@H](O)[C@H](O)CO [D-Mannose] | +
38 | OC[C@@H](O)C(O)[C@H](O)CO [D-Arabitol] | −
39 | C[C@H](O)[C@H](O)[C@@H](O)[C@@H](O)C=O [L-Rhamnose] | −
40 | O=C(CO)[C@@H](O)[C@H](O)[C@H](O)CO [D-Fructose] | w
41 | O=C[C@H](O)[C@@H](O)[C@@H](O)CO [L-Arabinose] | w
42 | OC[C@@H](O)[C@H](O)[C@@H](O)CO [Xylitol] | −

No dose or concentration is given here for some results.
